As usually defined, the koff is a measure of how fast the partners let go of each other. A low value points to a long-lived complex.

For one molecule, koff results are on record in publication doi:10.1101/2025.02.16.638509 (2025).

In this experiment the target is biotinylated Tom70 ([…]), AVI-tagged (human, biotin (AVI-tag, BirA co-expression)). Description: SPR. In general terms: SPR reads the build-up and loss of mass on a sensor chip optically.

B1: refolded WT Orf9b (apo-homodimer) (natural protein)
chain: not shown
The molecule B1 displayed an off-rate constant (koff) of 0.0039 s⁻¹.
